Measurements taken from publication PMC2625307 (Journal of molecular biology, 2008).

Tests used:
[1] = target: HXBc2 gp120 (Human immunodeficiency virus type 1 group M subtype B, UniProt P04578); assay: Surface-plasmon resonance binding, HXBc2 gp120; set-up: species or system HIV-1
[2] = target: YU2 gp120 (Human immunodeficiency virus type 1 group M subtype B, UniProt P35961); assay: Surface-plasmon resonance binding, YU2 gp120; set-up: species or system HIV-1
[3] = test system: diverse panel of envelope clones; assay: Viral neutralization over the whole panel of isolates; type: cell-based, HIV-1 group M and SIVcpz
[4] = test system: HIV-1 gp120; details: cited from earlier work

In the case of CC(C)C[C@@H]1NC(=O)CNC(=O)[C@H](CC(C)C)NC(=O)[C@H](CO)NC(=O)[C@H](CCCCN)NC(=O)[C@@H]2CSSC[C@@H](C(=O)N[C@H](C(N)=O)C(C)C)NC(=O)[C@H](C)NC(=O)[C@@H]3CSSC[C@H](NC(=O)[C@H](Cc4ccccc4)NC(=O)[C@H](Cc4c[nH]cn4)NC(=O)[C@H](CC(C)C)NC(=O)[C@H](CC(N)=O)NC(=O)CCSSC[C@H](NC(=O)[C@H](CCCNC(=N)N)NC(=O)CNC(=O)[C@H](CC(C)C)NC1=O)C(=O)N[C@@H](C)C(=O)N1CCC[C@@H]1C(=O)N[C@@H]([C@@H](C)O)C(=O)N[C@@H](Cc1ccccc1)C(=O)N3)C(=O)N[C@@H](CCC(N)=O)C(=O)N[C@@H](CC(C)C)C(=O)N[C@@H](CCCNC(=N)N)C(=O)N2 [[Phe^23]M47], the Kd [1] is reported as 6.24 ± 0.1 nM, the Kd [2] is reported as 3.87 ± 0.1 nM and the “intercept potency of ΔΔG^N vs genetic distance, reduction” value [3] is reported as “about 0.5 kcal/mol”.
For CC(C)C[C@@H]1NC(=O)CNC(=O)[C@H](CC(C)C)NC(=O)[C@H](CO)NC(=O)[C@H](CCCCN)NC(=O)[C@@H]2CSSC[C@@H](C(=O)N[C@H](C(N)=O)C(C)C)NC(=O)[C@H](C)NC(=O)[C@@H]3CSSC[C@H](NC(=O)[C@H](Cc4ccccc4)NC(=O)[C@H](Cc4c[nH]cn4)NC(=O)[C@H](CC(C)C)NC(=O)[C@H](CC(N)=O)NC(=O)CCSSC[C@H](NC(=O)[C@H](CCCCN)NC(=O)CNC(=O)[C@H](CC(C)C)NC1=O)C(=O)N[C@@H](C)C(=O)NCC(=O)N[C@@H](CO)C(=O)N[C@@H](Cc1ccc(-c4ccccc4)cc1)C(=O)N3)C(=O)N[C@@H](CCC(N)=O)C(=O)N[C@@H](CC(C)C)C(=O)N[C@@H](CCCNC(=N)N)C(=O)N2 [CD4M33], the Kd [1] is listed as 10.8 ± 0.14 nM, the “affinity to gp120” value ([4]; ref [23]) is listed as “nanomolar affinity” and the “affinity enhancement by the biphenyl moiety over phenyl derivative” value ([4]; vs phenyl derivative (printed [Phe^23]M47), ref [24]) is listed as “about 10 fold”.
